# Patent US9096492B2, “Hydrated N-fullerene amino acids, method for producing the latter, and pharmaceutical compositions on the basis thereof” (priority 2011, dated 2015)
# Where two headings read alike, the source gives them in different places.
# Key:
# [1] = system: A/Puerto Rico/8/34 (H1N1) influenza virus; type: in vivo, mice
# [2] = system: A/Vladivostok/2/09 (H1N1) influenza virus; type: in vivo, mice
substance,measurement,setting,value
N-fullerene tris(δ-aminocaproic acid) hydrate [Agent 1],"Index of protection, %","[1]; 30 mg/kg, Summary dose, n=29",14.2%
same,"Index of protection, %","[1]; 30 mg/kg, […], n=14",23.5%
same,"Index of protection, %","[1]; 30 mg/kg, […], n=15",13.3%
same,"Index of protection, %","[1]; 100 mg/kg, Summary dose, n=30",37.8%
same,"Index of protection, %","[1]; 300 mg/kg, Summary dose, n=29",51.7%
same,"Index of protection, %","[1]; 300 mg/kg, […], n=14",49.4%
same,"Index of protection, %","[1]; 300 mg/kg, […], n=15",57.1%
same,"Index of protection, %","[2]; 30 mg/kg, Summary dose, n=25",34.7%
same,"Index of protection, %","[2]; 30 mg/kg, […], n=12",30.6%
same,"Index of protection, %","[2]; 30 mg/kg, […], n=13",43.6%
same,"Index of protection, %","[2]; 100 mg/kg, Summary dose, n=22",36.4%
same,"Index of protection, %","[2]; 100 mg/kg, […], n=10",26.7%
same,"Index of protection, %","[2]; 100 mg/kg, […], n=12",44.4%
same,"Index of protection, %","[2]; 300 mg/kg, Summary dose, n=26",64.1%
